The subject of the data set is IFN-γ, TNF-α, IL-12 p40, NOS2, anti-T. gondii IgG. Briefly: Cytokine mRNA in eye and brain, serum cytokines and anti-T. gondii IgG in infected treated mice.

Regarding `CN1CCN(CCOc2cc(OC3CCOCC3)c3c(Nc4c(Cl)ccc5c4OCO5)ncnc3c2)CC1` [Saracatinib, N-(5-chloro-1,3-benzodioxol-4-yl)-7-(2-(4-methylpiperazin-1-yl)ethoxy)-5-(tetrahydro-2H-pyran-4-yloxy)quinazolin-4-amine], for the setting “ELISA”, the “serum IFN-γ levels” value was “modest increase”; the “serum levels of TNF-α and IL-12 p40” value is on record as “did not affect”. For the same compound, the “local expression of IFN-γ, TNF-α, IL-12 p40 and NOS2” value (mRNA in eye and brain, RT-qPCR) is on record as “not the result of increased local expression”. In addition, for the setting “serum, ELISA”, the “Anti-T. gondii IgG levels” value is on record as “unchanged”.

These data come from US20250312349A1, “COMPOSITION AND METHODS OF TREATING INTRACELLULAR PATHOGEN INFECTION” (UNIVERSITY HOSPITALS CLEVELAND MEDICAL CENTER, priority 2024, published 2025).
